Data source: PubChem BioAssay AID1259414 (Drosophila RNAi Screening Center, 2018)

- Aim: 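Host factors increasing or decreasing Wolbachia levels in cultured fly cells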 (primary screen)
- System: Drosophila JW18 cells infected with Wolbachia
- Reagent: long dsRNA against Drosophila genes, 0.25 µg dsRNA per well of a 384-well plate
- Timing: 5 days
- Conditions: cells persistently infected with Wolbachia before knock-down; no added drug
- Read-out: 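Imaged fluorescence in situ signal for Wolbachia 23S rRNA per DAPI-counted host cell, given as a robust z-score within each plate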
- Direction: Wolbachia per cell robust z: higher = more Wolbachia per host cell than the plate typical
- Call rule: 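Active if absolute robust z reaches 1.5 in two or more of three replicates, leaving out multi- or no-target dsRNAs, genes unexpressed in JW18 and A1 wells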
The screen tested about 24,000 reagents; this is an unselected part of those with a known target gene and a result. Of all reagents, about 1,210 (5%) got an active call. 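Inactive calls also include excluded dsRNAs with several or no targets, genes unexpressed in JW18, and well A1, regardless of score.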 Names joined by + are all predicted targets of the reagent.

Target gene	DRSC id	Wolbachia per cell robust z, rep 1	Wolbachia per cell robust z, rep 2	Wolbachia per cell robust z, rep 3	Call
Kpc2 (GeneID 37261)	DRSC07635	-2.8	-0.685	-0.431	inactive
rumpel (GeneID 31674)	DRSC18436	0.814	-2.94	0.269	inactive
mxt (GeneID 33686)	DRSC25001	0.619	-0.027	0.0268	inactive
CG42818 (GeneID 10178877)	DRSC01963	0.258	0.357	0.929	inactive
CG43673 + CG43672	DRSC19452	-0.688	-0.0389	-4.02	inactive
Dad (GeneID 42059)	DRSC16642	-0.526	-0.285	-0.723	inactive
Dad (GeneID 42059)	DRSC28345	-0.0763	-0.262	-0.335	inactive
CG9812 (GeneID 37709)	DRSC04566	0.144	-0.869	-0.696	inactive
TyrRS (GeneID 39829)	DRSC10430	0.732	1.15	-2.01	inactive
TyrRS (GeneID 39829)	DRSC27145	-0.0266	-0.0485	0.368	inactive
DCTN1-p150 (GeneID 39536)	DRSC11175	-0.132	1.39	-0.128	inactive
DCTN1-p150 (GeneID 39536)	DRSC23441	0.963	-1.39	-0.0636	inactive
CG5653 (GeneID 39024)	DRSC10534	0.232	0.528	-0.2	inactive
CG5653 (GeneID 39024)	DRSC29858	-3.09	-1.71	0.239	inactive
Cyp4aa1 (GeneID 36752)	DRSC07368	0.541	0.169	-0.553	inactive
Cyp4aa1 (GeneID 36752)	DRSC27648	-0.596	-1.32	-0.852	inactive
ctrip (GeneID 40596)	DRSC12242	1.25	1.53	0.117	inactive
ctrip (GeneID 40596)	DRSC12287	0.966	0.786	0.441	inactive
ctrip (GeneID 40596)	DRSC22449	-0.767	1.28	-0.71	inactive
ctrip (GeneID 40596)	DRSC23512	0.272	0.803	-0.813	inactive
ctrip (GeneID 40596)	DRSC27589	-0.769	-1.8	-1.14	inactive
fus (GeneID 44095)	DRSC05569	-1.55	-2.91	-0.308	active
fus (GeneID 44095)	DRSC07107	0.714	1.2	-0.478	inactive
CG14563 (GeneID 40435)	DRSC11724	0.69	0.939	-0.571	inactive
Rs1 (GeneID 44087)	DRSC05945	1.29	0.456	-9.84	inactive
Rs1 (GeneID 44087)	DRSC26592	0.998	-0.675	-0.119	inactive
CG3698 (GeneID 40298)	DRSC11749	0.622	-0.0638	-1.25	inactive
CG3698 (GeneID 40298)	DRSC26417	-0.798	-0.456	-1.36	inactive
CG34377 (GeneID 42608)	DRSC13559	-1.17	-2.15	-1.47	inactive
CG34377 (GeneID 42608)	DRSC14708	-5.43	-1.47	-1.11	inactive
CG34377 (GeneID 42608)	DRSC14709	0.497	-0.335	-0.15	inactive
CG34377 (GeneID 42608)	DRSC14710	0.21	0.501	0.319	inactive
CG34377 (GeneID 42608)	DRSC14711	-3.94	0.618	-0.725	inactive
CG30355 (GeneID 246561)	DRSC21958	-0.542	-0.147	-0.142	inactive
RpL37-2 (GeneID 37669)	DRSC04584	0.144	-5.74	-2.49	inactive
mRpL48 (GeneID 33348)	DRSC00506	-1.79	-0.492	-1.22	inactive
CG2656 (GeneID 40857)	DRSC12584	-0.891	0.545	-0.56	inactive
CG34015 (GeneID 3885570)	DRSC38795	0.243	-2.29	1.42	inactive
CG13339 (GeneID 36528)	DRSC06373	-4.34	-1.36	0.516	inactive
CG9743 (GeneID 43593)	DRSC16552	1.54	0.95	0.987	inactive
CG9743 (GeneID 43593)	DRSC28943	-0.585	-0.455	-1.09	inactive
Nplp3 (GeneID 59235)	DRSC25046	-0.185	-0.669	-0.692	inactive
CG13137 (GeneID 34349)	DRSC02234	1.74	-1.27	1.49	inactive
RpS15Aa + RpS15Ab	DRSC19831	2.88	2.21	3.88	inactive
Fuca (GeneID 3772574)	DRSC10591	-0.96	-4.19	-6.24	inactive

6 entries from above, arranged by “Wolbachia per cell robust z, rep 1”, low to high.
Target gene	DRSC id	Wolbachia per cell robust z, rep 1	Wolbachia per cell robust z, rep 2	Wolbachia per cell robust z, rep 3	Call
CG5653 (GeneID 39024)	DRSC29858	-3.09	-1.71	0.239	inactive
ctrip (GeneID 40596)	DRSC22449	-0.767	1.28	-0.71	inactive
Cyp4aa1 (GeneID 36752)	DRSC27648	-0.596	-1.32	-0.852	inactive
Cyp4aa1 (GeneID 36752)	DRSC07368	0.541	0.169	-0.553	inactive
ctrip (GeneID 40596)	DRSC12287	0.966	0.786	0.441	inactive
ctrip (GeneID 40596)	DRSC12242	1.25	1.53	0.117	inactive

The results go on.
Target gene	DRSC id	Wolbachia per cell robust z, rep 1	Wolbachia per cell robust z, rep 2	Wolbachia per cell robust z, rep 3	Call
l(2)k09848 (GeneID 35536)	DRSC04894	-0.481	-0.251	0.413	inactive
Phk-3 (GeneID 37997)	DRSC04547	-0.0553	1.4	0.104	inactive
Phk-3 (GeneID 37997)	DRSC41373	0.0321	0.617	0.346	inactive
Orc4 (GeneID 37970)	DRSC04634	-5.3	-0.722	-0.408	inactive
Orc4 (GeneID 37970)	DRSC29134	-0.229	0.443	-0.2	inactive
Orc4 (GeneID 37970)	DRSC41564	-1.41	-0.11	-2.6	inactive
CG9132 (GeneID 2768881)	DRSC20159	0.124	-6.61	-8.13	active
Atg18b (GeneID 35396)	DRSC03108	-0.246	0.65	0.243	inactive
Atg18b (GeneID 35396)	DRSC28594	1.58	1.69	-0.651	active
CG7275 (GeneID 39669)	DRSC10796	0.928	0.217	-0.0565	inactive
Frq2 (GeneID 32799)	DRSC20245	-0.219	0.929	0.294	inactive
Frq2 (GeneID 32799)	DRSC26037	0.706	1.19	0.777	inactive
Sardh (GeneID 37026)	DRSC06981	0.127	-0.185	-0.301	inactive
CG11619 (GeneID 40072)	DRSC09849	-0.805	-0.503	1.52	inactive
CG14147 (GeneID 39227)	DRSC10149	0.0696	0.587	1.33	inactive
Amyrel (GeneID 36863)	DRSC05920	-4.29	-0.581	-0.228	inactive
l(1)G0020 (GeneID 31811)	DRSC18198	0.31	0.0863	-0.98	inactive
pre-mod(mdg4)-U + mod(mdg4)	DRSC13476	-0.372	0.586	-7.62	inactive
CG8746 (GeneID 35867)	DRSC07257	0.479	0.641	0.0657	inactive
PSMG1 (GeneID 40719)	DRSC12297	-2.44	-2.91	-1.24	active
PSMG1 (GeneID 40719)	DRSC28532	-0.234	-1.5	-0.901	inactive
ProtB (GeneID 34867)	DRSC03373	-0.975	-3.14	0.528	inactive
ProtB (GeneID 34867)	DRSC27427	-2.52	-2.16	-0.289	inactive
